Compound potency records, mixed from different reports. Data source: NIAID ChemDB in PubChem.

All rows: enzyme or target tests

Inhibition is in % at the dose shown (toxicity tests: loss of growth or viability). An empty or dashed field is not shown. Rows are shuffled and stem from different studies. Fold resistance: result on the changed form divided by that on wild type. ICn is the concentration giving n% inhibition.

compound	target	method	strain	organism	changes	dose	endpoint	value
CC(C)C(=O)N[C@H]1C([C@H](C)[C@@H](O)CO)OC(C(=O)O)=C[C@@H]1NS(=O)(=O)C(Cl)Cl	Neuraminidase		TYPE 2	Parainfluenza virus			IC50	1.9 µM
C[C@H](CO)[C@@H](OC(N)=O)[C@@H]1OC(C(=O)O)=C[C@H](N)[C@H]1NC(=O)O	Sialidase		Victoria	Influenza B virus			IC50	0.41 µM
Nc1nc2c(ncn2[C@H]2CO[C@@H](COP(=O)(O)OP(=O)(O)OP(=O)(O)O)O2)c(=O)[nH]1	Reverse transcriptase	radiometric		HIV	RT-L74V K103N		Ki	0.022 µM
C/C(=N\NC(=S)NNC(=S)Nc1ccc(C(F)(F)F)cc1)c1ccccn1	Ribonucleotide reductase			Herpes simplex virus 1			IC50	<5 µM
NC(=O)C[C@H](NC(=O)[C@@H](N)Cc1ccccc1)C(=O)N[C@@H](Cc1ccccc1)[C@@H](O)C(=O)NCC1CCCCC1	Protease			HIV-1		1000 µM	inhibition	56.6%
COc1ccc2nc(NC(=O)C(=O)C(C(=O)c3ccc(-c4ccccc4)cc3)C3OC(=O)c4ccccc43)sc2c1	Geranylgeranyl-protein transferase I			Candida albicans			IC50	0.06 µM
C/C(=N\NC(=S)NNC(=S)Nc1ccccc1Br)c1ccccn1	Ribonucleotide reductase			Herpes simplex virus 1			IC50	>5 µM
C[C@H](CO)[C@@H](OC(=O)NCCCCCCN)[C@@H]1OC(C(=O)O)=C[C@H](N=C(N)N)[C@H]1NC(=O)O	Sialidase		H3N2 AICHI	Influenza A virus			IC50	0.004 µM
Clc1cc(CN2CCCNCCNCCCNCC2)cc(Cl)n1	CXCR4				CXCR4-D182N		IC50	0.56 µM
Cc1cccc(C(=O)N2CCN(c3cncc(-c4ccc5ccccc5c4)n3)CC2C)c1	UL97 kinase			Cytomegalovirus		10 µM	inhibition	>15%
CSCCCN1C(=O)c2ccccc2C(C(=O)c2ccccc2)C1=O	Protease		Serotype 14	Rhinovirus			IC50	130.6 µM
Nc1nc2c(ncn2[C@H]2CC[C@@H](COP(=O)(O)OP(=O)(O)OP(=O)(O)O)O2)c(=O)[nH]1	Reverse transcriptase	nucleotide incorporation		HIV	RT-F61L		fold resistance	1
CN(C)CCOc1ccccc1/C=N\N1CCN(C2Cc3ccccc3Sc3ccc(Cl)cc32)CC1	Geranylgeranyl-protein transferase I			Candida albicans			IC50	0.1 µM
C[C@H](CO)[C@@H](OC(=O)N(C1CCCCC1)C1CCCCC1)[C@@H]1OC(C(=O)O)=C[C@H](N)[C@H]1NC(=O)O	Sialidase		Victoria	Influenza B virus			IC50	40 µM
NC1CCN(c2nc3c(cc2F)c(=O)c(C(=O)O)cn3-c2ccc(F)cc2F)C1	Topoisomerase IV		J24 (quinolone- penicillin-sensitive)	Streptococcus pneumoniae			IC50	5.97 µg/mL
CC(C)N(C(=O)O[C@@H]([C@@H]1OC(C(=O)O)=C[C@H](N)[C@H]1NC(=O)O)[C@H](C)CO)C(C)C	Sialidase		Victoria	Influenza B virus			IC50	24 µM
O=C(OC1OC2COC(=O)c3cc(Oc4c(C(=O)OC5C(O)OC6COC(=O)c7cc(O)c(O)c(O)c7-c7c(cc(O)c(O)c7O)C(=O)OC6C5OC(=O)c5cc(O)c(O)c(O)c5)cc(O)c(O)c4O)c(O)c(O)c3-c3c(cc(O)c(O)c3O)C(=O)OC2C(OC(=O)c2cc(O)c(O)c(O)c2)C1O)c1cc(O)c(O)c(O)c1	DNA polymerase			Epstein-Barr virus		120 µg/mL	inhibition	81%
CC(C)(C)OC(=O)N[C@@H](Cc1ccccc1)[C@H](O)C(=O)N1CCC[C@H]1C(=O)N[C@@H](CCC(N)=O)C(=O)NCC1CCCCC1	Protease			HIV-1		1000 µM	inhibition	37.1%
COc1ccc(N2CCN(c3cncc(-c4ccc(F)cc4)n3)CC2)cc1	UL97 kinase			Cytomegalovirus		1 µM	inhibition	<50%
CC1(c2ccc(OCC#N)c(Cl)c2Cl)C(=O)c2ccccc2C1=O	Farnesyl-protein transferase			Candida albicans			IC50	124 µM
CC(C)[C@H](N)C(=O)N[C@H](C(=O)N[C@@H](Cc1ccccc1)[C@H](O)C(=O)N[C@H](Cc1ccccc1)C(=O)N[C@@H](C(=O)N[C@@H](C(N)=O)C(C)C)C(C)C)C(C)C	Protease			HIV-1		1000 µM	inhibition	47.1%
CO[C@@H]1[C@H](O)[C@@H](CO)O[C@H]1n1cnc2c(=O)[nH][nH]c(=O)c21	NTPase/helicase			West Nile virus			IC50	30 µM
C[C@H](CO)[C@@H](OC(=O)N1CCN(C(=O)OCc2ccccc2)CC1)[C@@H]1OC(C(=O)O)=C[C@H](N=C(N)N)[C@H]1NC(=O)O	Sialidase		H3N2 AICHI	Influenza A virus			IC50	0.014 µM
COc1cccc(NC(=S)NNC(=S)N/N=C(\C)c2ccccn2)c1	Ribonucleotide reductase			Herpes simplex virus 1			IC50	>5 µM
CN1C(=O)c2ccccc2C(CC(=O)c2ccc(F)cc2)C1=O	Protease		Serotype 14	Rhinovirus			IC50	56.2 µM
O=C1O[C@H]2C(O)O[C@@H]3COC(=O)c4cc(O)c(O)c(O)c4-c4c(cc(c(O)c4O)Oc4c(cc(O)c(O)c4O)C(=O)O[C@@H]4[C@@H](OC(=O)c5cc(O)c(O)c(O)c5)[C@@H]5OC(=O)c6cc(O)c(O)c(O)c6-c6c(cc7c(c6O)OC6C(O7)C1=CC(=O)C6(O)O)C(=O)OC[C@H]5O[C@H]4O)C(=O)O[C@H]3[C@@H]2OC(=O)c1cc(O)c(O)c(O)c1	DNA polymerase			Epstein-Barr virus			IC50	5.5 µg/mL
CCCC(=O)C1C(=O)N(CC(=O)N2CCCC2C(=O)O)C(=O)c2ccccc21	Protease		Serotype 2	Rhinovirus			IC50	>100 µM
OCc1ccc(-c2cncc(N3CCN(c4ccccc4)CC3)n2)cc1	UL97 kinase			Cytomegalovirus			IC50	<10 µM
CSCCCN1C(=O)Cc2ccccc2C1=O	Protease		Serotype 2	Rhinovirus			IC50	>200 µM
C/C(=N\NC(=S)NNC(=S)Nc1ccc(Br)cc1)c1ccccn1	Ribonucleotide reductase			Herpes simplex virus 1			IC50	>5 µM
CCOC(=O)CCCN1C(=O)c2ccccc2C(C(=O)c2ccccc2)C1=O	Protease		Serotype 14	Rhinovirus			IC50	63.3 µM
C[C@@H]1CN(c2c(F)c(N)c3c(=O)c(C(=O)O)cn(C4CC4)c3c2F)C[C@H](C)N1	Topoisomerase IV		J24 (quinolone- penicillin-sensitive)	Streptococcus pneumoniae			IC50	10.7 µg/mL
C/C(=N\NC(=S)NNC(=S)Nc1ccccc1)c1ccccn1	Ribonucleotide reductase			Herpes simplex virus 1			IC50	>5 µM
CC(=O)c1ccccc1-c1cncc(N2CCN(c3ccncc3)CC2)n1	UL97 kinase			Cytomegalovirus		10 µM	inhibition	>15%
C[C@H](CO)[C@@H](OC(=O)N1CCNCC1)[C@@H]1OC(C(=O)O)=C[C@H](N=C(N)N)[C@H]1NC(=O)O	Sialidase		Victoria	Influenza B virus			IC50	0.033 µM
CC(=O)c1ccc(N2CCN(c3cncc(-c4ccc(C)cc4)n3)CC2)cc1	UL97 kinase			Cytomegalovirus		1 µM	inhibition	<50%
C[C@H](CO)[C@@H](OC(=O)NCCO[C@@H]1O[C@@H](CO)[C@H](O)[C@@H](O)[C@H]1O)[C@@H]1OC(C(=O)O)=C[C@H](N=C(N)N)[C@H]1NC(=O)O	Sialidase		Victoria	Influenza B virus			IC50	0.16 µM
O=C(NNC(=S)N/N=C/c1ccccn1)Nc1ccccc1Cl	Ribonucleotide reductase			Herpes simplex virus 1			IC50	>5 µM
CC(C)(C)NC(=O)[C@@H]1CSCN1C(=O)[C@@H](O)[C@H](Cc1ccccc1)NC(=O)[C@H](CS(C)(=O)=O)NC(=O)c1ccccc1-c1ccccc1	Protease			HIV-1		5 µM	inhibition	>90%
COC(=O)C(CCSC)NC(=O)C1(Cc2ccccc2C)CCN(C(=O)[C@@H](N)CS)CC1	Geranylgeranyl-protein transferase I			Candida albicans			IC50	0.17 µM

3 of the rows above, restated:

compound	target	method	strain	organism	changes	dose	endpoint	value
C/C(=N\NC(=S)NNC(=S)Nc1ccc(Br)cc1)c1ccccn1	Ribonucleotide reductase			Herpes simplex virus 1			IC50	>5 µM
C[C@@H]1CN(c2c(F)c(N)c3c(=O)c(C(=O)O)cn(C4CC4)c3c2F)C[C@H](C)N1	Topoisomerase IV		J24 (quinolone- penicillin-sensitive)	Streptococcus pneumoniae			IC50	10.7 µg/mL
C/C(=N\NC(=S)NNC(=S)Nc1ccc(C(F)(F)F)cc1)c1ccccn1	Ribonucleotide reductase			Herpes simplex virus 1			IC50	<5 µM